Patent US20210054055A1 (UNIVERSITY OF VERMONT AND STATE AGRICULTURAL COLLEGE, published 2021)

Target: PRV (Zika virus)
Assay: cell-based or functional assay

Binder | FRNT50 (focus reduction neutralization on Vero cells) [ng/mL]
Anti-ZIKV clone DT168(A)-D1_A-9E (A9E) (antibody, V domains shown, also called ZV1; A9E mAb) VH: EVQLLESGGGLVQAGGSLRLSCAASGFTFDTYAMSWVRQPPGKGLEWVSAISTGGGSKYYADSVKGRLTISRDNSQNTLYLQMSSLRADDTAVYYCARSDFWRSGRYYYYMDVWGRGTTVTVSS VL: QSALTQPASVSASPGQSITISCTGTHFDIVDYDYLSWYQQHPGNAPKLLIYGVSNRPSGVSSRFSGSKSGNTASLTISGLQAEDEGDYYCSSYSISSTLLVFGGGTKLSV | 35.8
Anti-ZIKV clone DT168(A)-D1_G-9E (G9E) (antibody, V domains shown, also called ZV2; G9E mAb) VH: EVQLVESGGGVVQPGRSLRLSCVASGFAFSNYHMHWVRQAPGKGLEWVAIIWDDGSDQYYADSVKGRFTISRDNSKNTLFLQMNRLRAEDTALYYCVGGSSAYNGDNGWREAASLDDWGQGTLVTVSS VL: QSALTQPASVSGSPGQSITIFCSGSSNDVGGYNYVSWYQQYPGKVPKLLIYDVNSRPSGVSNRFSGSKSGNTASLTISGLQAEDEADYYCSSYTSRRTWVFGGGTIVTVL | 10.3
